Measurements published in article PMC8294059, “Identification and Immune Assessment of T Cell Epitopes in Five Plasmodium falciparum Blood Stage Antigens to Facilitate Vaccine Candidate Selection and Optimization” (Frontiers in Immunology, 2021).
Structures were worked out from names or drawings and are uncertain.

Experiments:
HLA-A*0301 = HLA-A*0301 (Homo sapiens, UniProt P04439); details: allele A*0301; fluorescence polarization competition
HLA-A*0201 = HLA-A*0201 (Homo sapiens, UniProt P04439, D140Y/D185E/D98H/E176V/E277Q/G131W/G231S/I119V/I121R/I166T/I218V/L300P/L318F/N151K/N90K/P208A/P217A/Q86G/Q94H/R138H/R169H/T345S); assay: In vitro class I HLA binding assay (fluorescence polarization competition)
Method: A cell-free class I HLA binding assay that allows for in vitro quantification of peptide-HLA binding affinity in a competition format was used. In this assay, a fluorescently labeled, high binding, control peptide is loaded onto 384-well ½-area plates along with unlabeled experimental peptides. To remove endogenous peptides and render the HLA A and B molecules receptive to binding, HLA is heated at 53°C for 15 minutes and immediately added to the assay. The mixture is then allowed to stand for three days. Once the mixture has reached steady equilibrium (at 72 hours), displacement of the high binding control peptide is measured through fluorescence polarization. Binding of experimental peptides is expressed as the percent inhibition of the labeled control peptide (experimental fluorescence / control fluorescence, multiplied by 100). The percent inhibition values for each experimental peptide (across a range of molar concentrations) are used to calculate the concentration which inhibits 50% of the labeled control peptide’s specific binding. This value is referred to as the peptide’s IC50.

CC(C)C[C@H](NC(=O)[C@H](Cc1ccccc1)NC(=O)[C@H](CC(=O)O)NC(=O)[C@H](CCCNC(=N)N)NC(=O)[C@H](CC(N)=O)NC(=O)[C@H](CO)NC(=O)[C@H](CS)NC(=O)[C@@H](NC(=O)[C@@H](N)Cc1ccccc1)C(C)C)C(=O)N[C@@H](CCCCN)C(=O)O
IC50 (nM), in vitro HLA binding affinity (HLA-A*0301): Non-binder

CC[C@H](C)[C@H](NC(=O)[C@H](Cc1ccccc1)NC(=O)[C@H](CO)NC(=O)[C@H](CC(N)=O)NC(=O)[C@H](Cc1c[nH]cn1)NC(=O)[C@H](CO)NC(=O)[C@@H]1CCCN1C(=O)[C@@H](NC(=O)[C@@H](N)Cc1ccccc1)[C@@H](C)CC)C(=O)O
IC50 (HLA-A*0201; read-out: IC50 (nM), in vitro HLA binding affinity, allele A*0201): 31000 nM | IC50 (nM), in vitro HLA binding affinity (HLA-A*0301): Non-Binder

CC[C@H](C)[C@H](NC(=O)[C@H](Cc1ccc(O)cc1)NC(=O)[C@@H]1CCCN1C(=O)[C@H](CCCNC(=N)N)NC(=O)[C@H](CC(C)C)NC(=O)[C@H](Cc1ccccc1)NC(=O)[C@H](Cc1ccccc1)NC(=O)[C@H](Cc1ccc(O)cc1)NC(=O)[C@H](CCC(N)=O)NC(=O)[C@@H](N)C(C)C)C(=O)O
IC50 (nM), in vitro HLA binding affinity (HLA-A*0201; allele A*0201): Non-binder
